# According to patent US4661502A (priority 1983, dated 1987):
# Tested on: male Wistar rats
# Assay: Acute toxicity test
# Details: intraperitoneal, 5 male Wistar rats; test compounds 6 mg/kg, neostigmine bromide 0.5 mg/kg
row,Compound,Acute toxicity: state of the rats after administration
1,CN(C)C(=O)Oc1ccc[n+](COC(=O)C(C)(C)C)c1.[Cl-],All the rats appeared normal
2,CN(C)C(=O)Oc1ccc[n+](COC(=O)c2ccccc2)c1.[Cl-],All the rats appeared normal
